A mixed list of measured activities; the numbers were collected in NIAID ChemDB.

All rows: tests in culture; species: Yellow fever virus; measure: EC50

An empty or dashed field is not shown.

SMILES,strain or isolate,cell line,result
N=C(N)c1ncn([C@@H]2O[C@H](CO)[C@@H](O)[C@H]2O)n1,,,>100 µM
CC(=O)OC[C@H]1O[C@@H](n2ncc(=O)[nH]c2=O)[C@H](OC(C)=O)[C@@H]1OC(C)=O,Asibi,VERO,3.1 µg/mL
Brc1ccc(Cn2ccc3nc(-c4ccccc4)nc-3c2)cc1,17D,VERO,>50 µM
O=C(Nc1nccc2c1ncn2[C@@H]1C[C@H](CO)[C@@H](O)[C@H]1O)c1ccccc1,Asibi,MK2,70 µg/mL
O=[N+]([O-])c1ccc2c(c1)c(N=NC(=S)Nc1ccccc1)c(O)n2CN1CCOCC1,,VERO,2.18 µg/mL
CC(=O)N[C@H]1C[C@@H](n2cnc3c(N)ncnc32)[C@H](O)[C@@H]1O,,HFF,>100 µg/mL
O=[N+]([O-])c1ccc2[nH]c(O)c(N=NC(=S)Nc3ccccc3)c2c1,,VERO,<0.8 µg/mL
Nc1nc(=O)n2ccn([C@@H]3O[C@H](CO)[C@@H](O)[C@H]3O)c2n1,,,≥100 µM
C[C@]1(CO)O[C@@H](n2ccc(N)nc2=O)[C@H](O)[C@@H]1O,,HepG2.2.15,>10 µM
CC(=O)OC[C@H]1O[C@@H](n2ncc(=O)[nH]c2=S)C(OC(C)=O)C1OC(C)=O,Asibi,VERO,12.6 µg/mL
Nc1ncn(C[C@@H](CO)OCP(=O)(O)O)c(=O)n1,,VERO,>100 µg/mL
O=c1cnn([C@@H]2O[C@H](CO)[C@@H](O)[C@H]2O)c(=S)[nH]1,Asibi,VERO,1.82 µg/mL
O=[N+]([O-])c1ccc2c(c1)c(N=NC(=S)NC1CCCCC1)c(O)n2CN1CCOCC1,,VERO,<0.8 µg/mL
CCOP(=O)(NC(C)C(=O)OC)OC[C@H]1O[C@@H](n2ncc(=O)[nH]c2=O)C(O)C1O,Asibi,VERO,160 µg/mL
CNC(=S)N=Nc1c(O)[nH]c2ccc([N+](=O)[O-])cc12,,VERO,>100 µg/mL
C[C@@]1(O)[C@H](O)[C@@H](COP(=O)(O)OP(=O)(O)OP(=O)(O)O)O[C@H]1n1ccc2c(N)ncnc21,,VERO,15 µM
O=C1Nc2ccc([N+](=O)[O-])cc2/C1=N/N=C1/SCC(=O)N1C1CCCCC1,,VERO,1.96 µg/mL
C[C@@]1(O)[C@H](O)[C@@H](CO)O[C@H]1n1ccn2c(=O)nc(N)nc12,,,>100 µM
O=[N+]([O-])c1ccc(NC(=S)N=Nc2c(O)[nH]c3ccc([N+](=O)[O-])cc23)cc1,,VERO,4 µg/mL
C[C@]1(CO)O[C@@H](n2ccc(=O)[nH]c2=O)[C@H](O)[C@@H]1O,,HepG2.2.15,>10 µM
CN1C(=O)CS/C1=N/N=C1\C(=O)Nc2ccc([N+](=O)[O-])cc21,,VERO,>20 µg/mL
Cc1cn([C@@H]2O[C@H](CO)[C@](O)(C(F)(F)F)[C@H]2O)c(=O)[nH]c1=O,,,≥100 µM
CCN1C(=O)CS/C1=N/N=C1\C(=O)Nc2ccc([N+](=O)[O-])cc21,,VERO,2.52 µg/mL
Nc1nc(=O)n2ccn([C@@H]3C[C@@H](O)[C@H](CO)O3)c2n1,,,>100 µM

Repeating the first 3 entries:

SMILES | strain or isolate | cell line | result
N=C(N)c1ncn([C@@H]2O[C@H](CO)[C@@H](O)[C@H]2O)n1 |  |  | >100 µM
CC(=O)OC[C@H]1O[C@@H](n2ncc(=O)[nH]c2=O)[C@H](OC(C)=O)[C@@H]1OC(C)=O | Asibi | VERO | 3.1 µg/mL
Brc1ccc(Cn2ccc3nc(-c4ccccc4)nc-3c2)cc1 | 17D | VERO | >50 µM

Lines come from different laboratories, so protocols vary. ECn is the concentration giving n% inhibition of infection, replication or growth.